Measured values from ChEMBL document CHEMBL6087437 (J Med Chem, 2025).

Assay: Selectivity index, ratio of CC50 for human HeLa cells to EC50 for antiviral activity against wildtype Ebolavirus infected in human HeLa cells
Type: toxicity, cell-based

Compound | Ratio CC50/EC50
O=C(Nc1ccc(N2CCC3(CCC3)CC2)c(C(F)(F)F)c1)c1ccc(CN2C[C@@H]3C[C@H]2CO3)nc1 | 43
O=C(Nc1ccc(N2CCC3(CCC3)CC2)c(C(F)(F)F)c1)c1ccc(CN2C[C@H]3C[C@@H]2CO3)nc1 | 26
